Results as given in PubChem BioAssay AID1159565 (GlaxoSmithKline (GSK), 2015).
pIC50: −log10 of the molar value.

Tested on: T. cruzi-infected H9C2 cardiomyocytes, high-content imaging
Assay: intracellular T. cruzi amastigote inhibition, imaging, H9C2 host cardiomyocytes, host toxicity (AID 1159565);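 also: infected cells incubated 72 h after plating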

Q: `CC(C)(C)c1ccc(NC2(C(N)=O)CCN(Cc3ccccc3)CC2)cc1` was tested. Which pIC50 did it give?
A: 6.60

Q: What about the pIC50 (measured here: H9C2 host cell toxicity) of the same compound?
A: < 4.30

Q: And the pIC50 (measured here: amastigotes per cell)?
A: 6.80
